Source: article PMC3832641, “Inhibition of Leishmania (Leishmania) amazonensis and Rat Arginases by Green Tea EGCG, (+)-Catechin and (−)-Epicatechin: A Comparative Structural Analysis of Enzyme-Inhibitor Interactions” (PLoS ONE, 2013)

Biological target: recombinant arginase from Leishmania amazonensis (ARG-L) (Leishmania amazonensis, UniProt O96394)
Experiment: Inhibition of ARG-L, determination of IC50 (urea production, Berthelot method)
Format: biochemical
Conditions: 50 mM L-arginine, CHES buffer 50 mM pH 9.5, 37°C, 15 min, mean ± SEM

| Compound | IC50 |
| --- | --- |
| Oc1cc(O)c2c(c1)O[C@H](c1ccc(O)c(O)c1)[C@H](O)C2 [(−)-epicatechin] | 1.8 µM |
| Oc1cc(O)c2c(c1)O[C@H](c1ccc(O)c(O)c1)[C@@H](O)C2 [(+)-catechin] | 0.8 µM and 0.77 µM |

Where “and” joins values, the source holds several entries; their conditions need not be identical. Equal entries are not always repeated.
